The Ki is a dissociation constant, usually derived from enzyme kinetics or from competition with a known ligand. A high value points to weaker binding.

For the assay, the target named is Human immunodeficiency virus type 1 protease (Human immunodeficiency virus 1, UniProt Q72874). Briefly: Binding affinity against ritonavir-resistant strains.

As to `Cc1cccc(C)c1OCC(=O)N[C@@H](Cc1ccccc1)[C@@H](O)C[C@H](Cc1ccccc1)NC(=O)[C@H](C(C)C)N1CCCNC1=O` [LOPINAVIR], the Ki turned out to be 4 pM.

The values above are taken from ChEMBL document CHEMBL1133572, “Protease inhibitors: current status and future prospects” (J Med Chem, 2000).
